Data source: PubChem BioAssay AID504761 (Drosophila RNAi Screening Center, 2011)
In all, the deposit lists about 22,000 reagents; shown is a random part of those that have a named target and a result. Over the whole deposit, 116 (0.52%) are marked active. 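Calls depend on retest data that are not deposited; infection was ranked per plate without normalising between plates; the unit of the infection score is not given.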 Raw values are not corrected between plates. Unmarked entries are inactive. Reagent sequences are not shown. Not given: the amount of reagent, the time to read-out.

Screen: 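Fly genes whose silencing reduces dengue virus type 2 infection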 (primary screen)
Cells: D.Mel-2 cells from Drosophila
Reagents: long dsRNA against Drosophila genes
Treatment: infection with dengue virus type 2; dose and infection time not stated
Measured: 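Per well on two replicate plates, imaging gave the percent of cells positive for viral envelope protein, ranked by infection, and a nuclear count of cells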
Reading the numbers: infection score: higher = more virus-infected cells; cell count: higher = more cells in the well
Call rule: 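Very low infection ranking in both replicate wells (chance probability at most 0.065), then a retest showing infection dropped 1.5-fold or more at p below 0.05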
Meaning of the calls: active = confirmed: knock-down lowers infection; inactive = not picked or not confirmed

gene | DRSC id | infection score, replicate 1 | infection score, replicate 2 | cell count, replicate 1 | cell count, replicate 2
apt (GeneID 37734) | DRSC23278 | 2.11 | 8.81 | 6303 | 6768
apt (GeneID 37734) | DRSC26181 | 6.24 | 5.7 | 4933 | 6962
ppk13 (GeneID 3346226) | DRSC02382 | 7.27 | 10.4 | 3481 | 4955
CG7556 (GeneID 32902) | DRSC20052 | 2.33 | 2.25 | 6395 | 6135
CG7556 (GeneID 32902) | DRSC26701 | 2.16 | 1.23 | 6154 | 6430
CG12655 (GeneID 33004) | DRSC20678 | 5.58 | 3.3 | 5523 | 4762
CG10505 (GeneID 37428) | DRSC04075 | 18.7 | 14.9 | 4912 | 5335
MED18 (GeneID 31140) | DRSC18549 | – | 7.24 | 347 | 6754
shrb (GeneID 35933) | DRSC07061 | 3.53 | 6.31 | 4198 | 4106
CG7557 (GeneID 39278) | DRSC10878 | 7.25 | 4.84 | 6701 | 7172
CG7557 (GeneID 39278) | DRSC28227 | 18.3 | 14.6 | 5149 | 3782
CG30467 (GeneID 36719) | DRSC07097 | 5.24 | 11.8 | 6378 | 5747
snsl (GeneID 33696) | DRSC00543 | 0.16 | 39.3 | 638 | 5227
snsl (GeneID 33696) | DRSC25714 | 6.74 | 4.4 | 5908 | 5609
CG4325 (GeneID 31167) | DRSC23171 | 2.43 | 11.5 | 5848 | 806
CG4325 (GeneID 31167) | DRSC26573 | 3.22 | 2.68 | 5954 | 5820
CG15376 (retired record) (GeneID 31354) | DRSC18046 | 0.48 | 7.9 | 6856 | 5459
CG15376 (retired record) (GeneID 31354) | DRSC25097 | 1.05 | 4.55 | 6447 | 6415
asrij (GeneID 37637) | DRSC04175 | 5.63 | 3.41 | 6674 | 6924
slpr (GeneID 44111) | DRSC18225 | 3.52 | 1.63 | 6251 | 6191
slpr (GeneID 44111) | DRSC23321 | 1.75 | 20.7 | 6351 | 5385
ohgt (GeneID 41230) | DRSC15521 | 12.6 | 0.55 | 6208 | 6732
ohgt (GeneID 41230) | DRSC30024 | 5.67 | 8.84 | 6221 | 6479
Nup75 (GeneID 37078) | DRSC06947 | 12.2 | 17.8 | 4893 | 4286
Nup75 (GeneID 37078) | DRSC28056 | 28.8 | 34 | 4554 | 5264
CG1924 (GeneID 32180) | DRSC19823 | 2.21 | 2.81 | 6701 | 7043
CG1924 (GeneID 32180) | DRSC24870 | 4.14 | 6.39 | 6674 | 6405
CG32576 (GeneID 318095) | DRSC19136 | 3.1 | 6.19 | 6068 | 6301
Cnot4 (GeneID 34416) | DRSC02830 | 4.05 | 3.88 | 5771 | 5493
Cnot4 (GeneID 34416) | DRSC02831 | 7.38 | 15.6 | 5259 | 4865
CG5521 (GeneID 43242) | DRSC15828 | 2.47 | – | 6394 | 316
CG5521 (GeneID 43242) | DRSC30087 | 1.88 | 6.55 | 6797 | 5706
CG12057 (GeneID 31854) | DRSC17797 | 36.5 | 27.9 | 5701 | 5497
CG9822 (GeneID 37440) | DRSC04568 | 23.8 | 33.8 | 5302 | 5092
croc (GeneID 40374) | DRSC11884 | 13.8 | 6.26 | 6199 | 6280
croc (GeneID 40374) | DRSC29346 | – | 7.11 | 295 | 6121
CG42709 (GeneID 39453) | DRSC10277 | 9.24 | 11.2 | 6777 | 7119
CG42709 (GeneID 39453) | DRSC25693 | 1.71 | 5 | 6018 | 6181
CG13088 (GeneID 34180) | DRSC02192 | 4.49 | 6.03 | 6163 | 6404
Sptz (GeneID 41370) | DRSC15758 | 3.35 | 11.3 | 6603 | 5002
Sptz (GeneID 41370) | DRSC27382 | 18.3 | 11.9 | 4915 | 6291
Or19a (GeneID 59214) | DRSC20684 | 3.41 | 0.83 | 5839 | 6036
kkv (GeneID 45884) | DRSC12315 | 7.36 | 6.66 | 6798 | 6483
FMRFaR (GeneID 38357) | DRSC08555 | 0.28 | 3.48 | 6374 | 6173
CG2577 (GeneID 32188) | DRSC19863 | 8.19 | 2.81 | 5357 | 5056
CG2577 (GeneID 32188) | DRSC23309 | 3.61 | 8.55 | 6037 | 6618
CG2577 (GeneID 32188) | DRSC26322 | 7.61 | 1.49 | 6501 | 5851
ca (GeneID 43518) | DRSC15305 | 9.07 | 7.82 | 6284 | 6967
ca (GeneID 43518) | DRSC15306 | 17.3 | 14.6 | 4519 | 5171
ca (GeneID 43518) | DRSC16314 | 2.52 | 13.2 | 5746 | 3667
RluA-2 (GeneID 34440) | DRSC02939 | 31.6 | 8.25 | 6438 | 6656
cta (GeneID 3355131) | DRSC03769 | 8.72 | 14.4 | 6730 | 6379
Sulf1 (GeneID 53437) | DRSC16874 | 2.16 | 5.7 | 6247 | 5891
Sulf1 (GeneID 53437) | DRSC27279 | 4.35 | 11.8 | 6870 | 6512
Surf6 (GeneID 42370) | DRSC15588 | 2.59 | 3.42 | 6248 | 7046
Surf6 (GeneID 42370) | DRSC29437 | 7.06 | 9.93 | 978 | 5439
Gbp2 (GeneID 36937) | DRSC06069 | 15.6 | 13.9 | 5665 | 4293
rdhB (GeneID 42614) | DRSC16190 | 6.06 | 6.25 | 6685 | 6399

Part of the list above, reformatted:
{"gene":"Cnot4 (GeneID 34416)","DRSC id":"DRSC02831","infection score, replicate 1":7.38,"infection score, replicate 2":15.6,"cell count, replicate 1":5259,"cell count, replicate 2":4865}
{"gene":"CG5521 (GeneID 43242)","DRSC id":"DRSC15828","infection score, replicate 1":2.47,"cell count, replicate 1":6394,"cell count, replicate 2":316}
{"gene":"CG5521 (GeneID 43242)","DRSC id":"DRSC30087","infection score, replicate 1":1.88,"infection score, replicate 2":6.55,"cell count, replicate 1":6797,"cell count, replicate 2":5706}
{"gene":"CG12057 (GeneID 31854)","DRSC id":"DRSC17797","infection score, replicate 1":36.5,"infection score, replicate 2":27.9,"cell count, replicate 1":5701,"cell count, replicate 2":5497}
{"gene":"CG9822 (GeneID 37440)","DRSC id":"DRSC04568","infection score, replicate 1":23.8,"infection score, replicate 2":33.8,"cell count, replicate 1":5302,"cell count, replicate 2":5092}
{"gene":"croc (GeneID 40374)","DRSC id":"DRSC11884","infection score, replicate 1":13.8,"infection score, replicate 2":6.26,"cell count, replicate 1":6199,"cell count, replicate 2":6280}
{"gene":"croc (GeneID 40374)","DRSC id":"DRSC29346","infection score, replicate 2":7.11,"cell count, replicate 1":295,"cell count, replicate 2":6121}
{"gene":"CG42709 (GeneID 39453)","DRSC id":"DRSC10277","infection score, replicate 1":9.24,"infection score, replicate 2":11.2,"cell count, replicate 1":6777,"cell count, replicate 2":7119}
{"gene":"CG42709 (GeneID 39453)","DRSC id":"DRSC25693","infection score, replicate 1":1.71,"infection score, replicate 2":5,"cell count, replicate 1":6018,"cell count, replicate 2":6181}
